PubChem BioAssay AID624099, ICCB-Longwood | 2012

Screen: 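Host factors E2 relies on to silence an HPV18 LCR reporter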 (primary screen)
System: human C33A cervical carcinoma cells (HPV-negative) stably expressing BPV1 E2 and an HPV18 LCR luciferase reporter
Reagents: siRNA pool against human genes, 40 nM
Timing: 72 h
Measurement: 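HPV18 LCR reporter light per well, converted to plate-wise z-scores that exclude control wells, and averaged over triplicate plates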
Reading the numbers: mean z-score and z-score: higher = stronger reporter signal, weaker E2 silencing
Active means: 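Hit if mean z-score reaches 2 and two or more of three replicate z-scores also reach 2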
Shown is a random part of about 21,000 reagents. Of all reagents, 497 (2.4%) are marked active. 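Higher z means weaker E2 silencing; only reporter increases were scored, and knock-downs that hurt cell survival may mask genuine repressor factors.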 A number with no mark means an inactive call. The numbers tell different reagents against one gene apart.

| gene symbol | reagent | mean z-score | z-score, replicate A | z-score, replicate B | z-score, replicate C |
| --- | --- | --- | --- | --- | --- |
| IFI16 | 1 | 1.39 | 1.15 | 1.32 | 1.7 |
| MCF2 | 1 | -0.87 | -0.69 | -1.14 | -0.76 |
| STX17 | 1 | -0.21 | -0.29 | -0.38 | 0.02 |
| MEGF6 | 1 | 1.29 | 1.56 | 1.31 | 0.99 |
| RAD51AP1 | 1 | 0.09 | 0.76 | -0.11 | -0.36 |
| SENP6 | 1 | 0.55 | 0.7 | 0.41 | 0.54 |
| SEC62 | 1 | 2.75 (active) | 2.68 | 3.11 | 2.45 |
| UBE2QL1 | 1 | 0.15 | 0.29 | 0.29 | -0.14 |
| AIRIM | 1 | -0.87 | -0.73 | -0.55 | -1.35 |
| OR52A1 | 1 | 0.37 | 0.42 | 0.53 | 0.17 |
| PHC1 | 1 | 1.42 | 1.48 | 1.53 | 1.26 |
| PHC1 | 2 | 0.25 | 0.52 | 0 | 0.22 |
| STRADA | 1 | -0.81 | -0.71 | -0.86 | -0.86 |
| RBM11 | 1 | -0.81 | -0.91 | -0.85 | -0.67 |

Next part; the last 3 above are carried over.
| gene symbol | reagent | mean z-score | z-score, replicate A | z-score, replicate B | z-score, replicate C |
| --- | --- | --- | --- | --- | --- |
| PHC1 | 2 | 0.25 | 0.52 | 0 | 0.22 |
| STRADA | 1 | -0.81 | -0.71 | -0.86 | -0.86 |
| RBM11 | 1 | -0.81 | -0.91 | -0.85 | -0.67 |
| ACKR2 | 1 | -0.11 | 0.15 | -0.17 | -0.32 |
| EN1 | 1 | 1.05 | 1.44 | 0.98 | 0.72 |
| PREB | 1 | -0.02 | -0.15 | -0.02 | 0.1 |
| CCL4L2 | 1 | -1.11 | -0.89 | -1.25 | -1.2 |
| CTRL | 1 | -0.88 | -1.12 | -0.89 | -0.64 |
| HRAS | 1 | -0.15 | -0.03 | -0.22 | -0.21 |
| STK38 | 1 | -0.83 | -1.04 | -0.45 | -1.01 |
| SFT2D1 | 1 | 0.14 | 0.33 | 0.43 | -0.33 |
| LOC401191 | 1 | 0.79 | 0.05 | 1.07 | 1.25 |
